According to PMC6191539, “NadA3 Structures Reveal Undecad Coiled Coils and LOX1 Binding Regions Competed by Meningococcus B Vaccine-Elicited Human Antibodies” (mBio, 2018):

Target: T1, full-length human LOX-1 fused to yellow fluorescent protein, expressed on CHO-K1 cells (human)
T1 construct: LOX-1 (low-density oxidized lipoprotein lectin-like receptor 1), human, full length, on transfected CHO-K1 cells; pEYFP-N1 usually places the YFP at the C-terminus of the insert (surmise); also called low-density oxidized lipoprotein lectin-like receptor 1; LOX-1-expressing cells; source: CHO-K1 cells, transiently transfected (pEYFP-N1 vector), on live cells
Experiment: flow cytometry on cells; CHO-K1 cells transiently expressing human LOX-1-YFP mixed with NadA3 protein (200 µg/ml) for 30 min at 37°C; detected with mouse polyclonal anti-NadA3 and APC-conjugated secondary antibody
Details: one partner purified

| Binder | percent doubly positive cells (LOX-1 and NadA) |
| --- | --- |
| NadA3 […] E62A D63A double mutant (domain or fragment, NadA3, N. meningitidis serogroup B strain 2996, […], […] with E62A and D63A; also called NadA3 E62A D63A) not shown | 54.3% |
| NadA3 […] N43A mutant (domain or fragment, NadA3, N. meningitidis serogroup B strain 2996, […], […] with N43A) not shown | 54.3% |
